# Sequence variants of PSTVd loop 15 after infection

Source: Wu et al. 2024 (doi:10.1371/journal.ppat.1012142), supplementary data.

PSTVd intermediate strain, loop 15: wild type GGAAACCGCUACUAC, pool pattern GGAAACCGNNNNNNC; upper and lower strand joined, each 5' to 3', the first 7 letters being the upper strand, closing pairs included.

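Three N. benthamiana plants were inoculated with the whole mutant pool. Samples came from the inoculated region at 5 days, the leaf margin at 10 and upper systemic leaves at 12.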

Values are reads per thousand in the sample; higher means more abundant, 0 means not found. Each value is the mean of three plants. "Pool" is the share in the plasmid pool used as inoculum, on the same scale. The inoculated region was read from the minus strand, the other sites from the plus strand. IR is the inoculated region, LM the leaf margin, Sys the systemic leaves. Samples held 43,870 to 66,106 reads, so the smallest values rest on one or two reads.

| sequence | pool | IR | LM | Sys |
|---|---|---|---|---|
| GGAAACCGAAGUGUC | 0.160 | 0.110 | 0.0121 | 0.0130 |
| GGAAACCGACACUCC | 0.192 | 0.0670 | 0 | 0 |
| GGAAACCGAGUAGUC | 0.192 | 0.0862 | 0.0128 | 0 |
| GGAAACCGAUAAAAC | 0.176 | 0.275 | 0.152 | 0.0648 |
| GGAAACCGAUCAUGC | 0.144 | 0.101 | 0.0121 | 0.00537 |
| GGAAACCGAUUCUGC | 0.176 | 0.0794 | 0.0108 | 0 |
| GGAAACCGCACGGCC | 0.240 | 0.107 | 0.0215 | 0 |
| GGAAACCGCACUGAC | 0.176 | 0.129 | 0 | 0 |
| GGAAACCGCCGACCC | 0.160 | 0.0885 | 0 | 0 |
| GGAAACCGCCGUUAC | 0.272 | 0.359 | 0.0733 | 0.108 |
| GGAAACCGCGAGUGC | 0.112 | 0.343 | 0.137 | 0.0455 |
| GGAAACCGCGCUAUC | 0.224 | 0.133 | 0.0200 | 0 |
| GGAAACCGCGGCGAC | 0.256 | 0.153 | 0 | 0 |
| GGAAACCGCGUUAGC | 0.320 | 0.152 | 0.0187 | 0 |
| GGAAACCGGAAACCC | 0.240 | 0.126 | 0.00668 | 0.00537 |
| GGAAACCGGACAGAC | 0.224 | 0.0552 | 0.00742 | 0 |
| GGAAACCGGAGCAAC | 0.160 | 0.102 | 0.00539 | 0 |
| GGAAACCGGAGGACC | 0.224 | 0.125 | 0.00668 | 0 |
| GGAAACCGGAUAUAC | 0.208 | 0.148 | 0 | 0.0107 |
| GGAAACCGGCCGUGC | 0.336 | 0.0569 | 0 | 0 |
| GGAAACCGGCGAAGC | 0.288 | 0.0806 | 0.00539 | 0 |
| GGAAACCGGCUCACC | 0.320 | 0.149 | 0.0275 | 0.00504 |
| GGAAACCGGCUCGCC | 0.304 | 0.0677 | 0 | 0 |
| GGAAACCGGGACCUC | 0.192 | 0.0785 | 0.00668 | 0 |
| GGAAACCGGGCCCGC | 0.304 | 0.105 | 0.0128 | 0 |
| GGAAACCGGGGAGCC | 0.288 | 0.0750 | 0.0121 | 0 |
| GGAAACCGGGGGGUC | 0.320 | 0.110 | 0.0316 | 0 |
| GGAAACCGGGGUUUC | 0.208 | 0.117 | 0.0262 | 0 |
| GGAAACCGGUAACUC | 0.400 | 0.121 | 0.0262 | 0.00537 |
| GGAAACCGGUAGUAC | 0.336 | 0.376 | 0.125 | 0.0107 |
| GGAAACCGGUGGUCC | 0.240 | 0.0678 | 0 | 0.0107 |
| GGAAACCGGUUAGGC | 0.336 | 0.0914 | 0 | 0 |
| GGAAACCGGUUCCCC | 0.112 | 0.0604 | 0 | 0 |
| GGAAACCGGUUUAGC | 0.352 | 0.102 | 0.00742 | 0 |
| GGAAACCGUAAAAAC | 0.176 | 0.387 | 0.185 | 0.0481 |
| GGAAACCGUAGCUAC | 0.208 | 0.293 | 0.145 | 0.0329 |
| GGAAACCGUAUGGAC | 0.144 | 0.120 | 0.00539 | 0 |
| GGAAACCGUCAGAAC | 0.256 | 0.270 | 0.111 | 0.0900 |
| GGAAACCGUCGGGCC | 0.240 | 0.113 | 0.0141 | 0 |
| GGAAACCGUCGGUUC | 0.320 | 0.315 | 0.114 | 0.0914 |
| GGAAACCGUCGUGAC | 0.176 | 0.0922 | 0.0128 | 0.00760 |
| GGAAACCGUCUUACC | 0.112 | 0.0832 | 0.00539 | 0 |
| GGAAACCGUCUUAGC | 0.272 | 0.109 | 0.0134 | 0 |
| GGAAACCGUGGCUUC | 0.224 | 0.144 | 0 | 0 |
| GGAAACCGUGUCAAC | 0.256 | 0.0913 | 0 | 0 |
| GGAAACCGUGUUCUC | 0.304 | 0.0514 | 0.0195 | 0 |
| GGAAACCGUUCCUAC | 0.272 | 0.340 | 0.129 | 0.0306 |
| GGAAACCGUUCGAUC | 0.192 | 0.293 | 0.143 | 0.0268 |
| GGAAACCGUUGCAAC | 0.368 | 0.0880 | 0.0208 | 0 |
| GGAAACCGUUUGACC | 0.272 | 0.0786 | 0 | 0 |
| GGAAACCGUUUUCGC | 0.192 | 0.0652 | 0.0162 | 0 |

The first 5 entries again:

* GGAAACCGAAGUGUC (pool 0.160) = IR 0.110; LM 0.0121; Sys 0.0130
* GGAAACCGACACUCC (pool 0.192) = IR 0.0670; LM 0; Sys 0
* GGAAACCGAGUAGUC (pool 0.192) = IR 0.0862; LM 0.0128; Sys 0
* GGAAACCGAUAAAAC (pool 0.176) = IR 0.275; LM 0.152; Sys 0.0648
* GGAAACCGAUCAUGC (pool 0.144) = IR 0.101; LM 0.0121; Sys 0.00537

The authors trace changes outside the varied positions to PCR and sequencing errors or to mutation in the plant; presence does not show that a variant is infectious alone. For reference, wild type rose from 33.9 per thousand in the pool to 202, 200, 159 (inoculated region), 724, 746, 710 (leaf margin) and 856, 883, 880 (systemic leaves).